# PSTVd loop 15 mutant pool in Nicotiana benthamiana

PSTVd intermediate strain, loop 15: wild type GGAAACCGCUACUAC, pool pattern GGAAACCGNNNNNNC; upper and lower strand joined, each 5' to 3', the first 7 letters being the upper strand, closing pairs included.

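A pool of all variants was put on leaves of three Nicotiana benthamiana plants. Progeny were sequenced from the inoculated region (day 5), the margin of the inoculated leaf (day 10) and systemic leaves (day 12).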

Numbers give reads per thousand; 0 = not seen among the reads, higher = more abundant.
Each value is the mean of three plants.
"Pool" is the share in the plasmid pool used as inoculum, on the same scale.
The inoculated region was read from the minus strand, the other sites from the plus strand.

sequence	pool	inoculated region	leaf margin	systemic leaves
GGAAACCGAACCGUC	0.240	0.109	0	0.00537
GGAAACCGCCUUUAC	0.192	0.353	0.119	0.0610
GGAAACCGAACUGAC	0.208	0.189	0.00539	0.00537
GGAAACCGUCUGGGC	0.224	0.102	0.00539	0
GGAAACCGACAUAGC	0.352	0.0776	0	0
GGAAACCGUUGUAAC	0.160	0.326	0.109	0.00537
GGAAACCGGCAAUCC	0.160	0.104	0.00742	0
GGAAACCGAGCGCCC	0.160	0.0831	0.00668	0
GGAAACCGUUGAGUC	0.224	0.0864	0	0
GGAAACCGAUCGAUC	0.224	0.291	0	0
GGAAACCGGUAAAGC	0.320	0.0955	0	0.00537
GGAAACCGUCACUAC	0.112	0.377	0.133	0.0515
GGAAACCGUAUCGGC	0.192	0.106	0.0134	0
GGAAACCGAAUGACC	0.176	0.106	0	0
GGAAACCGGGGUGUC	0.224	0.122	0	0.00537
GGAAACCGACCACAC	0.208	0.0569	0.00668	0
GGAAACCGGAUAGAC	0.256	0.110	0.00539	0
GGAAACCGGAUACCC	0.176	0.0671	0	0
GGAAACCGACCCGGC	0.240	0.0741	0.00539	0
GGAAACCGAGCCCCC	0.224	0.107	0.0128	0
GGAAACCGUAGCCUC	0.256	0.0948	0	0.00537
GGAAACCGUUCUAGC	0.176	0.0947	0.0195	0.00537
GGAAACCGUGAAUUC	0.304	0.314	0.127	0.107
GGAAACCGUACCAUC	0.240	0.133	0.00539	0
GGAAACCGGCAUUUC	0.240	0.272	0.0965	0.0670
GGAAACCGUAUUUCC	0.368	0.0568	0	0.00537
GGAAACCGGCACACC	0.256	0.0504	0	0
GGAAACCGGCAAAGC	0.192	0.104	0.0187	0
GGAAACCGACACAGC	0.240	0.0911	0.0148	0
GGAAACCGAGCAACC	0.304	0.0857	0	0
GGAAACCGCUCACAC	0.256	0.156	0.0215	0
GGAAACCGCUUACCC	0.352	0.119	0	0
GGAAACCGCCCUAAC	0.304	0.0909	0.0282	0
GGAAACCGAGCGCAC	0.208	0.112	0.00668	0.00760
GGAAACCGGGCGCAC	0.144	0.151	0.0134	0
GGAAACCGGAUCAAC	0.176	0.0974	0.0187	0
GGAAACCGUGGGUAC	0.0800	0.288	0.112	0.0613
GGAAACCGCUCGCCC	0.192	0.0768	0.00539	0.00760
GGAAACCGGAGCCAC	0.336	0.0651	0.00668	0
GGAAACCGUCCCGAC	0.304	0.137	0.0187	0
GGAAACCGUCAACGC	0.208	0.179	0.0175	0.00537
GGAAACCGAGGGAGC	0.240	0.0956	0.0249	0
GGAAACCGAUCAUUC	0.192	0.377	0.129	0.0158
GGAAACCGUCACAUC	0.288	0.102	0.0141	0
GGAAACCGCAAAUUC	0.192	0.254	0.122	0.0487
GGAAACCGGAUUGGC	0.224	0.105	0.0141	0
GGAAACCGCGAGCGC	0.208	0.101	0.00742	0.00760
GGAAACCGCUCGAUC	0.160	0.257	0.0987	0.0268
GGAAACCGUGCGGGC	0.160	0.0605	0	0
GGAAACCGACUGGCC	0.208	0.0723	0.00539	0
GGAAACCGGCGCUUC	0.288	0.0695	0.00539	0.00537
GGAAACCGCGCGUGC	0.224	0.333	0.112	0.0865
GGAAACCGUUUUGAC	0.288	0.0738	0.0241	0
GGAAACCGUCAACAC	0.336	0.435	0.115	0.0411
GGAAACCGACUCUAC	0.192	0.0792	0.00668	0.00537
GGAAACCGGAUUUGC	0.144	0.103	0.00668	0
GGAAACCGAUCACCC	0.224	0.137	0.0215	0
GGAAACCGAAUUUGC	0.272	0.0850	0.0134	0
GGAAACCGCGAACGC	0.160	0.0953	0.0128	0.00537
GGAAACCGGAUCUAC	0.240	0.130	0.0187	0.00537
GGAAACCGUAGAAUC	0.240	0.0790	0	0
GGAAACCGGGGUACC	0.272	0.125	0.0134	0
GGAAACCGAACGGCC	0.256	0.0633	0.0195	0
GGAAACCGAACGUUC	0.192	0.348	0.0860	0.0587
GGAAACCGGAUCUUC	0.240	0.0812	0.00539	0
GGAAACCGAGCCGAC	0.288	0.0972	0.00539	0
GGAAACCGAUCGAAA	0.0160	0.703	0.0833	0.0161
GGAAACCGAAUCGGC	0.224	0.0924	0	0

Excerpt, the final 9 entries:

{"sequence": "GGAAACCGGAUCUAC", "pool": "0.240", "inoculated region": 0.130, "leaf margin": 0.0187, "systemic leaves": 0.00537}
{"sequence": "GGAAACCGUAGAAUC", "pool": "0.240", "inoculated region": 0.0790, "leaf margin": 0, "systemic leaves": 0}
{"sequence": "GGAAACCGGGGUACC", "pool": "0.272", "inoculated region": 0.125, "leaf margin": 0.0134, "systemic leaves": 0}
{"sequence": "GGAAACCGAACGGCC", "pool": "0.256", "inoculated region": 0.0633, "leaf margin": 0.0195, "systemic leaves": 0}
{"sequence": "GGAAACCGAACGUUC", "pool": "0.192", "inoculated region": 0.348, "leaf margin": 0.0860, "systemic leaves": 0.0587}
{"sequence": "GGAAACCGGAUCUUC", "pool": "0.240", "inoculated region": 0.0812, "leaf margin": 0.00539, "systemic leaves": 0}
{"sequence": "GGAAACCGAGCCGAC", "pool": "0.288", "inoculated region": 0.0972, "leaf margin": 0.00539, "systemic leaves": 0}
{"sequence": "GGAAACCGAUCGAAA", "pool": "0.0160", "inoculated region": 0.703, "leaf margin": 0.0833, "systemic leaves": 0.0161}
{"sequence": "GGAAACCGAAUCGGC", "pool": "0.224", "inoculated region": 0.0924, "leaf margin": 0, "systemic leaves": 0}

Sequences that differ at fixed positions probably stem from PCR or sequencing errors, and defective variants can be carried along by functional ones.
With 43,870-66,106 reads a sample, very low values are single reads.
Wild type was 33.9 per thousand in the pool and the most common sequence in every sample (inoculated region 202, 200, 159; leaf margin 724, 746, 710; systemic leaves 856, 883, 880).

Values reported by Wu et al. 2024 (doi:10.1371/journal.ppat.1012142).